Results as given in PMC12691673, “Structural insight into RNA encapsidation by the severe fever with thrombocytopenia syndrome virus nucleocapsid protein” (mBio, 2025).

Biological target: the molecule itself
Assay: cryo-EM structure

B1: PEGylated SFTSV nucleocapsid protein (natural protein)
chain: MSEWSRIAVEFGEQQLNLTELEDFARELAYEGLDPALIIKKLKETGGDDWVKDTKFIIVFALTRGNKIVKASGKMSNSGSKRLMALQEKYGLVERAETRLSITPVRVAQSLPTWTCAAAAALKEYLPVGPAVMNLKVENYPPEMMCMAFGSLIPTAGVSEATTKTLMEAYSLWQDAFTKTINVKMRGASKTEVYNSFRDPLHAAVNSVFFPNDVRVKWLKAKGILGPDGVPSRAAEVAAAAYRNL
modifications: PEGylated with methyl-PEG4-NHS ester (modified residues not stated)
  stoichiometry N: 5
